According to paper PMC3445454, “Broad and Cross-Clade CD4^+ T-Cell Responses Elicited by a DNA Vaccine Encoding Highly Conserved and Promiscuous HIV-1 M-Group Consensus Peptides” (PLoS ONE, 2012):

Experiments:
Assay in all cases: biochemical
[1] = target: HLA-DQ DQA1*02:01/DQB1*02:02 (Homo sapiens, UniProt P01909+P01920, A45G/A70V/C70K/D167G/D89A/E106A/E183D/E77G/E98D/F237L/F77L/G63E/H199R/I129T/K197E/L107V/L178F/L74F/N214S/P84L/P87L/Q57E/Q76R/R75H/S185I/S97I/T103K/T109R/T172A/T60S/V73L/V78E/V99I/Y48F/Y58L/Y62S/Y69I/Y79F); assay type: binding
[2] = target: HLA-DQ DQA1*03:01/DQB1*03:01 (Homo sapiens, UniProt P01909+P01920, A209T/C70Q/DUP78-78/E183D/F237L/G63E/I129T/K197E/L178F/L74F/L98V/Q57E/Q76R/S185I/S97I/T49S/V73L); assay type: binding
[3] = target: HLA-DQ DQA1*03:01/DQB1*03:02 (Homo sapiens, UniProt P01909+P01920, A209T/A45G/C70Q/D89A/DUP78-78/E183D/E77G/F237L/G63E/H199R/I129T/K197E/L178F/L74F/L98V/Q57E/Q76R/S185I/S97I/T217I/T49S/V73L/Y58L); assay type: binding
[4] = target: HLA-DQ DQA1*01:02/DQB1*06:02 (Homo sapiens, UniProt P01909+P01920, A157G/A45G/C70R/E118A/E183D/E77G/F83G/G63E/H151Q/H199R/H252R/H253Q/I129T/I235V/I88M/INS77G/K197Q/L117V/L119F/L178F/L71W/L74F/L85Q/L91A/L98M/N214S/P87R/Q116E/Q76K/R102G/R240Q/R75S/R78G/S102Y/S185I/S41F/S97I/T121G/T122I/T172A/T86R/V229M/V68A/V73E/Y34C/Y41F/Y58L); assay type: binding
[5] = target: HLA-DQ DQA1*05:01/DQB1*02:01 (Homo sapiens, UniProt P01909+P01920, A45G/A70V/D89A/E106A/E77G/E98D/H199R/L107V/N214S/P84L/P87L/T103K/T109R/T172A/T60S/V78E/V99I/Y58L/Y62S/Y69I/Y79F)
[6] = target: HLA-DQ DQA1*04:01/DQB1*04:02 (Homo sapiens, UniProt P01909+P01920, A45G/E106S/E183D/E77G/E98D/H199R/I129T/K197E/L107V/L178F/L91T/P87R/P88L/R102E/S185I/S97I/T103D/T217I/V99I/Y41F/Y58G)
[7] = target: HLA-DQ DQA1*01:01/DQB1*05:01 (Homo sapiens, UniProt P01909+P01920, A157S/A45G/A70V/C70R/D89V/E106S/E118A/E183D/E77G/F83G/G63E/H151Q/H199R/H252R/H253Q/I129T/I235V/I88M/INS77G/K197Q/L107V/L117V/L119Y/L178F/L71W/L74F/L85Q/L91A/L98M/M46L/N214S/P87R/Q116E/Q256R/Q57E/Q76K/R102G/R240Q/R75S/R78G/S102Y/S185I/S41F/S97I/T103A/T109R/T121G/T122I/T172A/T86R/V148I/V68A/V73E/Y34C/Y58G/Y62H)
[8] = target: HLA-DQ DQA1*01:02/DQB1*05:02 (Homo sapiens, UniProt P01909+P01920, A157S/A45G/A70V/C70R/D89S/E106S/E118A/E183D/E77G/F83G/G63E/H151Q/H199R/H252R/H253Q/I129T/I235V/I88M/INS77G/K197Q/L107V/L117V/L119Y/L178F/L71W/L74F/L85Q/L91A/L98M/M46L/N214S/P87R/Q116E/Q158H/Q256R/Q76K/R102G/R240Q/R75S/R78G/S102Y/S185I/S41F/S97I/T103A/T109R/T121G/T122I/T172A/T86R/V148I/V229M/V68A/V73E/Y34C/Y58G/Y62H)
[9] = target: HLA-DQ DQA1*01:04/DQB1*05:03 (Homo sapiens, UniProt P01909+P01920, A157S/A221T/A45G/A70V/C70R/D25G/E106S/E118A/E183D/E77G/F83G/G63E/H151Q/H199R/H252R/H253Q/I129T/I235V/I88M/INS77G/K197Q/L107V/L117V/L119Y/L178F/L71W/L74F/L85Q/L91A/L98M/M46L/N214S/P87R/Q116E/Q256R/Q57E/Q76K/R102G/R240Q/R75S/R78G/S102Y/S185I/S41F/S97I/T103A/T109R/T121G/T122I/T172A/T86R/V148I/V68A/V73E/Y34C/Y58G/Y62H)
[10] = target: HLA-DQ DQA1*01:03/DQB1*06:03 (Homo sapiens, UniProt P01909+P01920, A157G/A45G/C70R/E118A/E183D/E77G/F83G/G63E/H199R/H252R/H253Q/I129T/I235V/I88M/INS77G/K197Q/L117V/L119F/L178F/L71W/L74F/L85Q/L91A/L98M/N214S/P87R/Q116E/Q76K/R102G/R240Q/R64K/R75S/R78G/S102Y/S152A/S185I/S41F/S97I/T121G/T122I/T172A/T86R/V68A/V73E/Y34C/Y48F/Y58L/Y62H)
[11] = read-out: Binding capacity/IC50 (nM) DQA1*02:01 DQB1*02:02
[12] = read-out: Binding capacity/IC50 (nM) DQA1*03:01 DQB1*03:01
[13] = read-out: Binding capacity/IC50 (nM) DQA1*03:01 DQB1*03:02
[14] = read-out: Binding capacity/IC50 (nM) DQA1*01:02 DQB1*06:02

Row | SMILES | IC50 [1, 11] | IC50 [2, 12] | IC50 [3, 13] | IC50 [4, 14] | IC50 [5] | IC50 [6] | IC50 [7] | IC50 [8] | IC50 [9] | IC50 [10] | IC50 [2] | IC50 [3] | IC50 [4] | IC50 [1]
1 | CC[C@H](C)[C@H](NC(=O)[C@H](CCCCN)NC(=O)[C@H](CCC(N)=O)NC(=O)[C@@H](NC(=O)[C@H](C)NC(=O)[C@H](CCC(=O)O)NC(=O)[C@@H](N)[C@@H](C)O)C(C)C)C(=O)N[C@@H](C)C(=O)N[C@H](C(=O)N[C@@H](CCC(=O)O)C(=O)N[C@@H](CO)C(=O)N[C@H](C(=O)N[C@H](C(=O)N[C@H](C(=O)N[C@@H](Cc1c[nH]c2ccccc12)C(=O)NCC(=O)N[C@@H](CCCCN)C(=O)N[C@H](C(=O)N1CCC[C@H]1C(=O)N[C@@H](CCCCN)C(=O)N[C@@H](Cc1ccccc1)C(=O)N[C@@H](CCCNC(=N)N)C(=O)N[C@@H](CC(C)C)C(N)=O)[C@@H](C)O)[C@@H](C)CC)C(C)C)[C@@H](C)CC)[C@@H](C)O [RT(369-391)] | 618 nM | 1970 nM | 9610 nM | 2830 nM | 1.04 µM | 3.19 µM | > 30 µM | > 30 µM | > 30 µM | 0.261 µM |  |  |  | 
2 | CSCC[C@H](NC(=O)[C@H](CCCCN)NC(=O)[C@H](C)NC(=O)[C@H](Cc1ccc(O)cc1)NC(=O)[C@H](CCCCN)NC(=O)CNC(=O)[C@@H](NC(=O)[C@H](CCCCN)NC(=O)[C@H](CC(C)C)NC(=O)[C@H](CC(N)=O)NC(=O)[C@H](CCCCN)NC(=O)[C@H](Cc1ccccc1)NC(=O)[C@@H]1CCCN1C(=O)[C@H](CCC(=O)O)NC(=O)[C@@H](N)CCC(N)=O)[C@@H](C)O)C(N)=O [RT(343-357)] | > 30000 nM | 4780 nM | > 30000 nM | > 30000 nM | > 30 µM | > 30 µM | > 30 µM | > 30 µM | > 30 µM | 5.79 µM |  |  |  | 
3 | CC[C@H](C)[C@H](NC(=O)[C@H](CCCCN)NC(=O)[C@@H](NC(=O)[C@@H](NC(=O)[C@@H](N)CCC(N)=O)[C@@H](C)CC)[C@@H](C)O)C(=O)N[C@@H](CCC(N)=O)C(=O)N[C@@H](CC(N)=O)C(=O)N[C@@H](Cc1ccccc1)C(=O)N[C@@H](CCCNC(=N)N)C(=O)N[C@H](C(=O)N[C@@H](Cc1ccc(O)cc1)C(=O)N[C@@H](Cc1ccc(O)cc1)C(=O)N[C@@H](CCCNC(=N)N)C(=O)N[C@@H](CC(=O)O)C(=O)N[C@@H](CO)C(=O)N[C@@H](CCCNC(=N)N)C(=O)N[C@@H](CC(=O)O)C(=O)N1CCC[C@H]1C(=O)N[C@H](C(=O)N[C@@H](Cc1c[nH]c2ccccc12)C(N)=O)[C@@H](C)CC)C(C)C [integrase(216-235)] | 4880 nM |  |  |  | 3.35 µM | 9.77 µM | 0.038 µM | 0.076 µM | 0.202 µM | 0.153 µM | 6320 nM | > 30000 nM | 5010 nM | 
4 | CC[C@H](C)[C@H](N)C(=O)N[C@H](C(=O)N[C@@H](C)C(=O)N[C@@H](CC(C)C)C(=O)N[C@H](C(=O)N[C@H](C(=O)N[C@@H](C)C(=O)N[C@H](C(=O)N[C@H](C(=O)N[C@H](C(=O)N[C@@H](Cc1c[nH]c2ccccc12)C(=O)N[C@H](C(=O)N[C@H](C(=O)N[C@H](C(N)=O)C(C)C)[C@@H](C)CC)[C@@H](C)O)C(C)C)C(C)C)[C@@H](C)CC)[C@@H](C)CC)[C@@H](C)CC)C(C)C [vpu(13-26)] | > 30000 nM | > 30000 nM | > 30000 nM | > 30000 nM | > 30 µM | > 30 µM | > 30 µM | > 30 µM | > 30 µM | 5.81 µM |  |  |  | 
5 | CC[C@H](C)[C@H](NC(=O)[C@H](CCSC)NC(=O)[C@@H](NC(=O)[C@H](CCC(N)=O)NC(=O)[C@H](Cc1c[nH]c2ccccc12)NC(=O)[C@H](CCCNC(=N)N)NC(=O)[C@H](CC(N)=O)NC(=O)[C@H](CCC(=O)O)NC(=O)[C@@H](N)CCSC)C(C)C)C(=O)N[C@H](C(=O)N[C@@H](Cc1c[nH]c2ccccc12)C(=O)N[C@@H](CCC(N)=O)C(=O)N[C@H](C(=O)N[C@@H](CC(=O)O)C(=O)N[C@@H](CCCNC(=N)N)C(N)=O)C(C)C)C(C)C [vif(1-15)] |  | 10400 nM | 17600 nM | 1340 nM | > 30 µM | 5.53 µM |  | 0.699 µM | 0.731 µM | 8.03 µM |  |  |  | 3210 nM

Where two headings read alike, the source gives them in different places.
